Results of unrelated studies side by side (data: NIAID ChemDB).

All rows: whole-cell or culture tests; agent: HIV-1; read by: p24; endpoint: fold resistance

a–b is a range or a potency band. Rows are shuffled and stem from different studies. Fold resistance has wild type as its base. Blank or dashed fields: not listed here.

structure | mutations | strain | cells | value
CC(C)(C)NC(=O)[C@@H]1CN(Cc2cccnc2)CCN1C[C@@H](O)C[C@@H](Cc1ccccc1)C(=O)N[C@H]1c2ccccc2C[C@H]1O | PR-L10I I15V K20R M36I M46L I54V K55R I62V L63P K70Q V82A L89M | Clinical isolate | PBMC | 37.7
Cc1cn([C@H]2C[C@H](N=[N+]=[N-])[C@@H](CO)O2)c(=O)[nH]c1=O | RT-K65R | HXB2-D65(RT-K65R) | MT-4 | 0.5
O=C(c1ccccc1)c1cnc(Cc2ccc(Nc3c(Cl)cccc3Cl)cc2)[nH]1 | gp120 F145L N269E Q278H I288V N293D FNSTW364-368 deletion | NL4-3 | MT-4 | >15.4
O=c1[nH]cnc2c1ncn2[C@H]1CC[C@@H](CO)O1 | RT-M41L L74V V106A T215F | - | C8166 | 5
CCc1cc(CCc2nc3c(Cl)ccc(Cl)c3o2)c(=O)[nH]c1C | RT-K103N Y181C | A17 | H9 | 60
Cc1cccc(C)c1CNC(=O)[C@H]1N(C(=O)[C@@H](O)C[C@@H](Cc2ccccc2)C(=O)N[C@H]2c3ccccc3C[C@H]2O)CSC1(C)C | PR-V18C | - | MT-4 | 1
Nc1nc(NC2CC2)c2ncn([C@H]3C=C[C@@H](CO)C3)c2n1 | RT-delta67 K103N | - | MT-2 | 15
Nc1ccn([C@H]2CC[C@@H](CO)O2)c(=O)n1 | RT-L214F | L214F(RT-L214F) | MT-2 | 1.2
C[C@H](CNC(=S)Nc1ccc(Br)cn1)c1ccccc1 | RT-Y181C K103N | NNRTI-resistant (RT Y181C K103N) A17V | PBMC | 40
O=c1[nH]cnc2c1ncn2[C@H]1CC[C@@H](CO)O1 | RT-K65R M184V | HXB2-D (RT K65R M184V) | CBMC | 2.89
Nc1ncnc2c1ncn2CCOCP(=O)(O)O | RT-K65R | HXB2D (RT-K65R) | PBMC | 15.6
CC(C)[C@H](NC(=O)N(C)Cc1ccccn1)C(=O)N[C@@H](Cc1ccccc1)[C@H](O)[C@H](O)[C@H](Cc1ccccc1)NC(=O)[C@@H](NC(=O)N(C)Cc1ccccn1)C(C)C | PR-M46I | NL4-3 | MT-4 | 1
CC(C)(C)NC(=O)[C@@H]1C[C@@H]2CCCC[C@@H]2CN1C[C@@H](O)[C@H](Cc1ccccc1)NC(=O)[C@H](CC(N)=O)NC(=O)c1ccc2ccccc2n1 | PR-L10F V32I M46I I47V I84V T91S | NL4-3.C14 (PR L10F V32I M46I I47V I84V T91S) | MT-4 | 0.5
S=C(NCCc1cccs1)Nc1ccc(Br)cn1 | RT-Y181C K103N | NRTI resistant (RT Y181C K103N) A17 variant | PBMC | 106.6
O=C(N[C@H]1c2ccccc2OC[C@H]1O)[C@H](Cc1cccnc1)C[C@H](O)CN1CCN(Cc2ccn(-c3cccc(C(F)(F)F)c3)c2)C[C@H]1C(=O)NCC(F)(F)F | PR-L10I M46I I54V Q58E L63P I64V V77I V82F I84V L90M I93L | K-60C Clinical isolate | MT-4 | 2.06
Cc1cn([C@@H]2O[C@H](CO[Si](C)(C)C(C)(C)C)C3(OS(=O)(=O)C=C3N)[C@H]2O[Si](C)(C)C(C)(C)C)c(=O)n(C)c1=O | RT-V106A | IIIB | CEM | 91.7
Cc1c(O)cccc1C(=O)N[C@@H](CSc1ccccc1)[C@H](O)CN1C[C@H]2CCCC[C@H]2C[C@H]1C(=O)NC(C)(C)C | PR-L10I I15V E35D N37E K45R I54V L63P A71V V82T L90M I93L C95F | Clinical isolate | PBMC | >43.5
CC(C)[C@H](NC(=O)c1ccc2ccccc2n1)C(=O)N[C@@H](Cc1ccccc1)[C@H](O)CN1CC[C@@H](SCc2cccnc2)C[C@H]1C(=O)NC(C)(C)C | PR-V32I A71V | BILA1906-resistant (PR V32I A71V) | C8166 | 3
Cc1ccc(NC(=S)N[C@H](C)c2cccc3ccccc23)nc1 | RT-Y181C | NNRTI-resistant (RT Y181C) A17 | PBMC | 29
CC(C)c1c(CO)cn(Cc2ccncc2)c1Sc1cc(Cl)cc(Cl)c1 | RT-Y181C | - | C8166 | <56.7
Cc1cn([C@H]2C[C@H](N=[N+]=[N-])[C@@H](CO)O2)c(=O)[nH]c1=O | RT-M184V | XM-M184V | MT-4 | 0.5
Nc1nc(NC2CC2)c2ncn([C@H]3C=C[C@@H](CO)C3)c2n1 | MDR769 | - | PBMC | 15
C[C@@H](CNC(=S)Nc1ccccn1)c1ccccc1 | RT-Y181C | NNRTI-resistant (RT Y181C) A17 | PBMC | 83
CC(C)(C)NC(=O)[C@@H]1C[C@@H]2CCCC[C@@H]2CN1C[C@@H](O)[C@H](Cc1ccccc1)NC(=O)[C@H](CC(N)=O)NC(=O)c1ccc2ccccc2n1 | PR-M46I V82T | NL4-3 | MT-4 | 1
CCN1c2ncc(CCOc3ccc(C(=O)O)c4ccccc34)cc2C(=O)N(C)c2ccc(Cl)nc21 | RT-K103N Y181C | - | C8166 | 1
Nc1nc(=O)n([C@@H]2CO[C@H](CO)S2)cc1F | RT-D67G | HxB2D(RT-D67G) | PBMC | 4.64
CCN1c2ncc(CCOc3ccc(C(=O)O)c4c3CCCC4)cc2C(=O)N(C)c2cccnc21 | RT-V106A | - | C8166 | 1–10
CC(C)CN(C[C@@H](O)[C@H](Cc1ccccc1)NC(=O)O[C@H]1[C@H]2CCCO[C@H]2O[C@@H]1C)S(=O)(=O)c1ccc(N)cc1 | PR-L10I K14R R41K M46I I54V L63P A71V V82A L90M I93L | TM | PBMC | 8
Cc1cccc(C)c1OCC(=O)N[C@@H](Cc1ccccc1)[C@H](O)CN1CC[C@@H](Sc2ccncc2)C[C@H]1C(=O)NC(C)(C)C | PR-I84V | BILA2185-resistant (PR I84V) | C8166 | 5.5
S=C(NCCCn1ccnc1)Nc1nccs1 | RT-K103N Y181C | A17 | PBMC | >100000
COc1ccc2c(c1)N(C(=O)OC(C)C)[C@@H](CSC)C(=S)N2 | RT-Y181C | IIIB | CEM | 2
Cc1cn([C@H]2C[C@H](N=[N+]=[N-])[C@@H](CO)O2)c(=O)[nH]c1=O | RT-K70R T215Y/F | 1495-2 (RT K70R T215Y/F) NRTI resistant | PBMC | 7
CC(C)=CCOc1cc(NC(=S)c2ccoc2C)ccc1Cl | RT-K103N Y181C | UC781-resistant (RT K103N Y181C) A17 | MT-2 | >1040
COc1ccc(S(=O)(=O)N(CC(C)C)C[C@@H](O)[C@H](Cc2ccccc2)NC(=O)O[C@H]2CO[C@H]3OCC[C@H]32)cc1 | PR-L10I V11I T12E I15V L19I R41K M46L L63 A71T V82A L90M | Clinical isolate | PBMC | 2
Cc1cccc(NC(=S)NC[C@H](C)c2ccccc2)n1 | RT-Y181C K103N | NNRTI-resistant (RT Y181C K103N) A17V | PBMC | 29.75
Fc1ccccc1CCNC(=S)Nc1ccc(Br)cn1 | RT-Y181C K103N | NNRTI-resistant (RT Y181C K103N) A17V | PBMC | 41000
CC(C)Nc1cccnc1N1CCN(C(=O)c2cc3cc(NS(C)(=O)=O)ccc3[nH]2)CC1 | - | 472 clinical isolates AZT-resistant | PBMC | >100
C[C@@H](CNC(=S)Nc1ccccn1)c1ccccc1 | RT-Y181C K103N | NNRTI-resistant (RT Y181C K103N) A17V | PBMC | 16
Nc1nc(NC2CC2)c2ncn([C@H]3C=C[C@@H](CO)C3)c2n1 | RT-M184V | M184V | PBMC | 3.5
Cc1cccc(-n2ccc(CN3CCN(C[C@@H](O)C[C@@H](Cc4cccnc4)C(=O)N[C@H]4c5ccccc5OC[C@H]4O)[C@H](C(=O)NCC(F)(F)F)C3)c2)c1 | PR-L10I M46I I54V Q58E L63P I64V V77I V82F I84V L90M I93L | K-60C Clinical isolate | MT-4 | ≥3.8
CCc1cc(CCc2nc3ccccc3o2)c(=O)[nH]c1C | RT-K103N Y181C | A17 | H9 | 1000
Cc1cccc(NC(=S)NC[C@H](C)c2ccccc2)n1 | RT-Y181C | NNRTI-resistant (RT Y181C) A17 | PBMC | 35
Cc1cn([C@H]2C[C@H](N=[N+]=[N-])[C@@H](CO)O2)c(=O)[nH]c1=O | RT-P157S | - | CD4+HELA + HeLa | 0.375
Cc1occc1C(=S)Nc1ccc(Cl)c(/C=N/OC(C)(C)C)c1 | RT-M184V | IIIB | CEM | 0.14
Cc1ccc(CCNC(=S)Nc2ccc(Br)cn2)cc1 | RT-Y181C | A17 | PBMC | 10
Fc1ccccc1CCNC(=S)Nc1ccc(Br)cn1 | RT-Y181C | A17 | PBMC | >330
Nc1ncnc2c1ncn2[C@@H]1O[C@H](CO)C[C@@H]1F | RT-A62V V75I F77L F116Y Q151M | RT A62V/V75I/F77L/F116Y/Q151M | MT-2 | 2.4
C=C(CC(=O)O)c1ccc(OCCc2cnc3c(c2)C(=O)N(C)c2cccnc2N3CC)c2ccccc12 | RT-K103N Y181C | - | C8166 | 1–10
CC(C)CN(C[C@@H](O)[C@H](Cc1ccccc1)NC(=O)[C@H](CC(N)=O)NC(=O)c1ccc2ccccc2n1)C(=O)NC(C)(C)C | PR-L10R M46I L63P | NL4-3 | MT-4 | 1
Nc1ccn([C@H]2CC[C@@H](CO)O2)c(=O)n1 | RT-M184V | 126 BCH-189 (RT-M184V) | MT-4 | 6.57
CC(C)[C@H](NC(=O)c1ccc2ccccc2n1)C(=O)N[C@@H](Cc1ccccc1)[C@H](O)CN1CC[C@@H](SCc2cccnc2)C[C@H]1C(=O)NC(C)(C)C | PR-M46I A71V I84A | WT1906-R33 (PR M46I A71V I84A) | C8166 | 326
Nc1nc(=O)n([C@@H]2CS[C@H](CO)O2)cc1F | RT-M184V | 3TC-resistant (RT M184V) Clinical isolate | PBMC | 63
Cc1csc(NC(=S)N[C@H](C)c2ccccc2)n1 | RT-Y181C | NNRTI-resistant (RT Y181C) A17 | PBMC | >164
COc1ccc(OC)c(CCNC(=S)Nc2ccc(Br)cn2)c1 | RT-K103N Y181C | A17 | PBMC | >8000
Nc1ccn([C@@H]2CO[C@H](CO)S2)c(=O)n1 | RT-K65R | HXB2D (RT-K65R) | PBMC | 2.5
O=c1[nH]cnc2c1ncn2[C@H]1CC[C@@H](CO)O1 | RT-delta67 T69G | - | MT-2 | 0.9
O=c1[nH]cnc2c1ncn2[C@H]1CC[C@@H](CO)O1 | RT-P119S V179D L214F | RT P119S V179D L214F | MT-2 | 1.1
CC(C)c1nc(CN(C)C(=O)N[C@H](C(=O)N[C@@H](Cc2ccccc2)C[C@H](O)[C@H](Cc2ccccc2)NC(=O)OCc2cncs2)C(C)C)cs1 | PR-D30N N88D | NL4-3 | MT-4 | 0.2
COc1ccc2c(c1)N(C(=O)OC(C)C)[C@@H](CSC)C(=S)N2 | RT-G190E | A1(RT-G190E) | H9 | >1430
C[C@@H](NC(=S)Nc1ccc(Br)cn1)c1cccc2ccccc12 | RT-Y181C | NNRTI-resistant (RT Y181C) A17 | PBMC | 70
C=C(C)OC(=O)N1c2cc(Cl)ccc2NC(=S)C1(C)C | RT-G190E | A1(RT-G190E) | H9 | >1670
C[C@@H]1O[C@H]2OCCC[C@H]2[C@H]1OC(=O)N[C@@H](Cc1ccccc1)[C@H](O)CN1C[C@H]2CCCC[C@H]2C[C@H]1C(=O)NC(C)(C)C | PR-L10I K43T M46I I54V L63P A71V V82A L90M Q92K | MM | PBMC | >4
O=c1[nH]cnc2c1ncn2[C@H]1CC[C@@H](CO)O1 | RT-A62V V75I F77C F116Y Q151M | XM-Q151M | MT-4 | 7.8
Cc1cn([C@H]2C[C@H](N=[N+]=[N-])[C@@H](CO)O2)c(=O)[nH]c1=O | RT-D67N K70R T215F K219Q | - | C8166 | 29
CCN1c2ncc(CCOc3ccc(C(=O)O)c4ccccc34)cc2C(=O)Nc2c(C)cc(Cl)nc21 | RT-K103N Y181C | - | C8166 | 1
C[C@H](CNC(=S)Nc1ccc(Cl)cn1)c1ccccc1 | RT-Y181C K103N | NNRTI-resistant (RT Y181C K103N) A17V | PBMC | >2500
Cc1cn([C@H]2C[C@H](N=[N+]=[N-])[C@@H](CO)O2)c(=O)[nH]c1=O | - | 477 clinical isolates delavirdine-resistant | PBMC | 1
C[C@@H]1O[C@@H]2OCCC[C@@H]2[C@@H]1OC(=O)N[C@@H](Cc1ccccc1)[C@H](O)CN1C[C@H]2CCCC[C@H]2C[C@H]1C(=O)NC(C)(C)C | PR-L10I K43T M46I I54V L63P A71V V82A L90M Q92K | MM | PBMC | >42
C[C@@H](CNC(=S)Nc1ccc(Br)cn1)c1ccccc1 | RT-Y181C K103N | NNRTI-resistant (RT Y181C K103N) A17V | PBMC | 366
CC(C)Nc1cccnc1N1CCN(C(=O)c2cc3cc(NS(C)(=O)=O)ccc3[nH]2)CC1 | RT-L74V M41L V106A T215Y | NRTI resistant (RT L74V M41L V106A T215Y) MDR | PBMC | 44.4
CC(C)=CCN1Cc2cc(Cl)cc3[nH]c(=S)n(c23)C[C@@H]1C | RT-G190E | IIIB | CEM | ≥250
O=C(N[C@H]1c2ccccc2OC[C@H]1O)[C@H](Cc1cccnc1)C[C@H](O)CN1CCN(Cc2ccn(-c3cc(Cl)c(Cl)c(Cl)c3)c2)C[C@H]1C(=O)NCC(F)(F)F | PR-L10I M46I I54V Q58E L63P I64V V77I V82F I84V L90M I93L | K-60C Clinical isolate | MT-4 | ≥3.8
NC(=O)[C@H](Nc1ccccc1[N+](=O)[O-])c1c(Cl)cccc1Cl | RT-I135T Q207E T215F K219Q | AZT-resistant (RT I135T Q207E T215F K219Q) | - | 5.62